The source of these data is US11254706B2 (Inno Bio-Drug Development Limited, priority 2015, dated 2022).

This series in a line: general procedure: Fmoc solid-phase peptide synthesis; D or Q residue preloaded Wang resin (0.79 mmol/g load); PyBOP, 0.4 M N-methylmorpholine in DMF. The conditions noted are these: whole synthesis; for final HPLC purity: UV 220 nm.

Ends that are not written are not given here. A value given as a limit tells only on which side of the number the result lay.

For the substance DEAQETAVSSHEQ-OH, the isolated yield was found to be 29% and the “final HPLC purity” value was above 95%.
For DEAQETAVSSHEQD-OH, the isolated yield is 28% and the “final HPLC purity” value was above 95%.
